In PMC5913971, “A Novel Piperazine-Based Drug Lead for Cryptosporidiosis from the Medicines for Malaria Venture Open-Access Malaria Box” (Antimicrobial Agents and Chemotherapy, 2018):
Some compounds share one wording; it may come from a single statement.

Each compound was assayed on C. parvum (assay: Parasite persistence (time-kill) assay in HCT-8 cells). Settings: highest nontoxic concentration, replicates test.
Assay type: cell-based, Cryptosporidium parvum
Experimental: Excysted C. parvum oocysts were added to >90% confluent HCT-8 cells in 384-well plates. […] At ∼24 h (i.e., the time of compound addition) and at various time intervals thereafter, parasites were washed, fixed, permeabilized, stained, and imaged as for the C. parvum growth assay. For the extended-compound-exposure experiments, the medium and compound were replaced every 3 days. A separate 384-well plate was used for each time interval. Parasite numbers were normalized to host cell nucleus numbers and are expressed as the percentage of parasites per host cell nucleus. In order to fit parasite decay curves, the effect of drugs was isolated from expected changes in parasite numbers over time by expressing the number of parasites as the percentage of the number of parasites with the control, dimethyl sulfoxide (DMSO), for each time point. Exponential decay curves were fit using GraphPad Prism software, version 6.01, and curve validity was assessed using the replicates test.
For CC(C)/N=c1\cc2n(-c3ccc(Cl)cc3)c3ccccc3nc-2cc1Nc1ccc(Cl)cc1 [clofazimine], the “fit of one-phase exponential decay curve” value was “not possible to fit exponential decay curves”.
NC[C@@H]1O[C@H](O[C@H]2[C@@H](O)[C@H](O[C@@H]3[C@@H](O)[C@H](N)C[C@H](N)[C@H]3O[C@H]3O[C@H](CO)[C@@H](O)[C@H](O)[C@H]3N)O[C@@H]2CO)[C@H](N)[C@@H](O)[C@@H]1O [paromomycin] was tested, and the “fit of one-phase exponential decay curve” value was “not possible to fit exponential decay curves”.
In the case of O=C(Nc1ccc(Cl)cc1)N1CCN(c2ccc3nncn3n2)CC1 [MMV665917, Clc1ccc(NC(=O)N2CCN(CC2)c3ccc4nncn4n3)cc1], the “fit of one-phase exponential decay curve” value was “high-quality curve was readily generated”.
CC(=O)Oc1ccccc1C(=O)Nc1ncc([N+](=O)[O-])s1 [nitazoxanide] was tested, and the “fit of one-phase exponential decay curve” value was “not possible to fit exponential decay curves”.
